The subject of the assay is neuraminidase of H5N1 A/Hong Kong/156/1997 (reverse genetic reassortant). To be noted: read-out: Neuraminidase inhibition EC50, oseltamivir, geomean of two experiments.

One may read the EC50 as the concentration at which the effect is half-maximal. On to oseltamivir carboxylate, for which the EC50 amounted to 380 nM.

The values are drawn from US10174127B2 (priority 2015, dated 2019).
